Test [1] addresses T1, Delta (SARS-CoV-2).
T1 construct: recombinant spike
Put plainly: ELISA, coated spike, mAb titrated.

The target of test [2] is T1, Delta. Put plainly: ELISA, coated spike, mAb titrated. The source holds these as a separate data set. (In general: An ELISA detects its analyte on a solid surface through an enzyme-linked reagent.)

Where two headings read alike, the source gives them in different places.

B1: DH1509 (antibody, V domains shown)
VH: QVQLVESGGGVVQPGRSLRLSCAASGFTLSSHGIHWVRQAPGKGLEWVAVTSFDGRNKKFGDSVKGRFTISRDNSKNTVYLQMNSLRTEDTAVYYCAKDWGDDYSRWYFDLWGRGTLVTVSS
VL: DIQMTQSPSSLSASVGDRVTITCQASHDITKYLNWYQQKPGRAPKLLIYDASNLKTGVPSRFSGSGSGTDFTFTITSLQPEDLATYYCQQSDVLPITFGQGTRLEIK
What is called EC50 (read off the curve) is the concentration needed to bring the measured effect to its halfway point. High values mean weaker potency, low ones greater potency. B1: the “EC50 (read off the curve)” value in test [1] is approximately 0.06 µg/mL.

B2: DH1498 (antibody, V domains shown)
VH: QVQLQESGPGLVKPSETLSLTCAVSGGSVSSDTYYWSWIRQPPGKGLEWIGYIYNSGSTNYNPSLKSRVTISVDTSKSQFSLNLGSVTAADTAVYYCAREGAGTYPPKNDAFDIWGQGTLVTVSS
VL: EIVLTQSPDSLAVSLGERATINCKSSQSVLFSSDNKNYLAWYQQKPGQPPKLLIYWASTRESGVPDRFSGSGSGTDFTLTISSLQAEDVAVYYCQQYYNSPRTFGQGTKVEIK
Regarding B2, the “EC50 (read off the curve)” value in test [2] is approximately 0.03 µg/mL.

The values are drawn from patent US20240285753A1 (DUKE UNIVERSITY, published 2024).
